Reference: PubChem BioAssay AID624099 (ICCB-Longwood, 2012)
This is a random part of about 21,000 reagents tested. Over the whole deposit, 497 (2.4%) got an active call. 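Higher z means weaker E2 silencing; only reporter increases were scored, and knock-downs that hurt cell survival may mask genuine repressor factors.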

- Assay: 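Knock-downs relieving repression by E2 of an HPV18 LCR luciferase reporter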 (primary screen)
- Cell system: human C33A cervical carcinoma cells (HPV-negative) stably expressing BPV1 E2 and an HPV18 LCR luciferase reporter
- Reagents: siRNA pool against human genes, 40 nM
- Duration: 72 h
- Read-out: 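Per-well luciferase luminescence, z-scored on each plate against the plate mean and SD with control wells left out, then averaged across three replicate plates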
- Reading the numbers: mean z-score and z-score: higher = stronger reporter signal, weaker E2 silencing
- Active means: 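Hit if mean z-score reaches 2 and two or more of three replicate z-scores also reach 2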

gene | mean z-score | z-score, replicate A | z-score, replicate B | z-score, replicate C | activity call
GHITM (growth hormone inducible transmembrane protein) | 1.51 | 1.15 | 1.77 | 1.62 | inactive
GSTZ1 (glutathione S-transferase zeta 1) | -0.56 | -0.34 | -0.73 | -0.6 | inactive
DEFB123 (defensin beta 123) | -0.24 | 0 | -0.29 | -0.41 | inactive
BCAS2 (BCAS2 pre-mRNA processing factor) | -0.2 | -0.39 | -0.07 | -0.14 | inactive
IFNAR2 (interferon alpha and beta receptor subunit 2) | 0.12 | 0.08 | 0.09 | 0.19 | inactive
ZNF236 (zinc finger protein 236) | -0.33 | -0.24 | -0.38 | -0.38 | inactive
PSMG1 (proteasome assembly chaperone 1) | -0.12 | -0.33 | -0.16 | 0.14 | inactive
DMGDH (dimethylglycine dehydrogenase) | 1.07 | 1.22 | 1.17 | 0.83 | inactive
GSPT2 (G1 to S phase transition 2) | -1.03 | -1.11 | -1.37 | -0.61 | inactive
FCGR1BP (Fc gamma receptor Ib, pseudogene) | 1.72 | 1.97 | 1.65 | 1.54 | inactive
CCKBR (cholecystokinin B receptor) | 0.1 | 0.11 | 0 | 0.2 | inactive
PRC1 (protein regulator of cytokinesis 1) | 0.8 | 1.21 | 0.3 | 0.89 | inactive
CGNL1 (cingulin like 1) | 1.72 | 1.76 | 1.55 | 1.84 | inactive
KCNRG (potassium channel regulator) | -0.45 | -0.66 | -0.3 | -0.38 | inactive
CD81 (CD81 molecule) | 0.66 | 0.93 | 0.42 | 0.64 | inactive
SERPINB11 (serpin family B member 11) | 0.48 | 0 | 0.48 | 0.98 | inactive
PHTF1 (putative homeodomain transcription factor 1) | 1.48 | 2.64 | 0.91 | 0.88 | inactive
NECAP2 (NECAP endocytosis associated 2) | 2.68 | 2.9 | 2.61 | 2.53 | active
PPP1R13L (protein phosphatase 1 regulatory subunit 13 like) | 0.18 | 0.22 | 0.29 | 0.03 | inactive
MRTFB (myocardin related transcription factor B) | -0.29 | -0.31 | -0.32 | -0.22 | inactive
HELQ (helicase, POLQ like) | -0.14 | -0.44 | 0.05 | -0.03 | inactive
SHFL (shiftless antiviral inhibitor of ribosomal frameshifting) | 0.34 | 0.09 | 0.49 | 0.44 | inactive
C1orf167 (chromosome 1 open reading frame 167) | -0.92 | -0.94 | -0.79 | -1.05 | inactive
PRKCQ (protein kinase C theta) | 0.62 | 0.49 | 0.68 | 0.71 | inactive
PTPRU (protein tyrosine phosphatase receptor type U) | -0.16 | 0.02 | -0.27 | -0.22 | inactive
TMCO1 (transmembrane and coiled-coil domains 1) | 1.21 | 0.85 | 1.34 | 1.45 | inactive
SMN1 (survival of motor neuron 1, telomeric) | -0.34 | -0.81 | 0.05 | -0.26 | inactive
ZNF878 (zinc finger protein 878) | 0.17 | 0.25 | 0.07 | 0.18 | inactive
PIGW (phosphatidylinositol glycan anchor biosynthesis class W) | 0.69 | 0.78 | 0.45 | 0.83 | inactive
CLHC1 (clathrin heavy chain linker domain containing 1) | -0.07 | 0.31 | -0.32 | -0.21 | inactive
SGTB | -1.4 | -1.45 | -1.55 | -1.2 | inactive
RTRAF (RNA transcription, translation and transport factor) | 0.55 | 0.68 | 0.37 | 0.61 | inactive
POU2AF3 (POU class 2 homeobox associating factor 3) | 0.51 | 0.69 | 0.68 | 0.15 | inactive
FOXM1 (forkhead box M1) | 0.41 | 0.69 | 0.23 | 0.3 | inactive
CIBAR1P1 (CIBAR1 pseudogene 1) | 0.62 | 0.7 | 0.73 | 0.44 | inactive
PRSS23 (serine protease 23) | 0.31 | 0.31 | -0.14 | 0.77 | inactive
HMGB3 (high mobility group box 3) | -0.22 | 0.01 | -0.39 | -0.27 | inactive
TRADD (TNFRSF1A associated via death domain) | -0.75 | -0.81 | -0.58 | -0.85 | inactive
NUP54 (nucleoporin 54) | 1.74 | 1.83 | 1.78 | 1.62 | inactive

Records listed so far whose target name begins with N or n:
gene | mean z-score | z-score, replicate A | z-score, replicate B | z-score, replicate C | activity call
NECAP2 (NECAP endocytosis associated 2) | 2.68 | 2.9 | 2.61 | 2.53 | active
NUP54 (nucleoporin 54) | 1.74 | 1.83 | 1.78 | 1.62 | inactive
